This note sets out measurements from PMC11841048 (ACS Infectious Diseases, 2025).

One assay concerns the target BaIMPDH (wild-type) (Bacillus anthracis, UniProt A0A6L8P2U9). Conditions: read-out: Ki,app.
Assay [1] has as its target BaIMPDH L413A (Bacillus anthracis, UniProt A0A6L8P2U9, L413A).
The target of another assay is BaIMPDH L413V (Bacillus anthracis, UniProt A0A6L8P2U9, L413V).
The test system of assay [2] is BaIMPDH L413A. The settings on record: L413A versus wild-type BaIMPDH.

Molecules are shown by their SMILES. Like-named read-outs stand apart in the source and are kept apart here.

As for `CC(=O)c1cccc(C(C)(C)NC(=O)Nc2ccc(Cl)c(C#N)c2)c1`, the Ki at BaIMPDH (wild-type) stood at 0.067 µM. On to `NC(=O)C1=CN([C@@H]2O[C@H](COP(=O)(O)OP(=O)(O)OC[C@H]3O[C@@H](n4cnc5c(N)ncnc54)[C@H](O)[C@@H]3O)[C@@H](O)[C@H]2O)C=CC1` [NADH], for which, on BaIMPDH L413A [1] (lower limit (ΔSSQ = 5%)), the “k4 (NADH release)” value is listed as >255 s^–1 and the “k–4 (NADH association)” value was >0.67 μM^–1 s^–1. Also, on BaIMPDH L413A [1] (read-out: k4/k–4, NADH and E-XMP*), the Kd worked out at 370 µM. Take `NC(=O)c1ccc[n+]([C@@H]2O[C@H](COP(=O)(O)OP(=O)(O)OC[C@H]3O[C@@H](n4cnc5c(N)ncnc54)[C@H](O)[C@@H]3O)[C@@H](O)[C@H]2O)c1`: at BaIMPDH L413V (L413V, [IMP] 1000 µM, brackets 95% confidence interval), the “apparent Michaelis constant for NAD+, KmB” value was 3650 [ 2460 , 6100 ] µM. Also, the Km at BaIMPDH L413V (read-out: Km(NAD^+), L413 V) came to 3.3 mM. Moreover, on BaIMPDH L413A [1] (geometric mean), the “k7 (NAD^+ association with E-XMP*)” value was determined as 0.000917 μM^–1 s^–1, the “k–2 (NAD^+ dissociation from E·IMP·NAD^+)” value is on record as 6.9 s^–1 and the “k–7 (NAD^+ dissociation from E-XMP*·NAD^+)” value worked out at 4.12 s^–1. In addition, the “k2 (NAD^+ association with E·IMP)” value on BaIMPDH L413A [1] (geometric mean of 18 best-fit values) was determined as 0.00852 μM^–1 s^–1. The Kd on BaIMPDH L413A [1] (read-out: k–2/k2, NAD^+ and E·IMP) came to 810 µM. The Kd at BaIMPDH L413A [1] (read-out: k–7/k7, NAD^+ and E-XMP*) was determined as 4500 µM. Take `CC(=O)c1cccc(CNC(=O)Nc2ccc(Cl)cc2)c1`: at BaIMPDH (wild-type), the Ki was 2.01 µM.

Consider `CC(Oc1cccc2ccccc12)C(=O)Nc1ccc(Br)cc1` (stereo not drawn), for which the Ki on BaIMPDH (wild-type) was 0.145 µM. On to `C=C(C)c1cccc(C(C)(C)NC(=O)Nc2cccc(Cl)c2)c1`, for which the Ki on BaIMPDH (wild-type) amounted to 0.283 µM. Consider `C=C(C)c1cccc(C(C)(C)NC(=O)Nc2ccc(Cl)cc2)c1`, for which the Ki at BaIMPDH (wild-type) came out at 0.0068 µM.

As to `CC(=O)c1cccc(C(C)(C)NC(=O)Nc2ccc(Cl)cc2)c1`, on BaIMPDH (wild-type), the Ki turned out to be 0.053 µM. With `CC(C)C(Oc1cccc2ccccc12)C(=O)Nc1ccc(Br)cc1` (stereo not drawn), on BaIMPDH (wild-type), the Ki amounted to 0.076 µM. On the same count and under the same terms, to `CC(C(=O)Nc1ccc(Cl)cc1)n1c(-c2nccs2)nc2ccccc21` (stereo not drawn) belongs 0.062 µM; to `C[C@@H](Oc1cccc2c1ccc[n+]2[O-])c1cn(-c2ccc(Cl)cc2)nn1`, 0.069 µM; to `O=C(Cn1c(-c2nccs2)nc2ccccc21)Nc1ccc2c(c1)OCCO2`, 0.707 µM. Still for that read-out and setting: to `CC(=O)c1cccc(C(C)NC(=O)Nc2ccc(Cl)cc2)c1` (stereo not drawn) belongs 0.07 µM; to `O=C(Cn1c(-c2nccs2)nc2ccccc21)Nc1ccc(Cl)cc1`, 0.107 µM. For `C=C(C)c1cccc(C(C)(C)NC(=O)Nc2ccc(Cl)c(C(=O)O)c2)c1`, the Ki on BaIMPDH (wild-type) was determined as 0.018 µM.

Turning to `C=C(C)c1cccc(C(C)NC(=O)Nc2ccc(Cl)cc2)c1` (stereo not drawn), the Ki on BaIMPDH (wild-type) is 0.173 µM. Take `O=C(Cn1c(-c2ccccn2)nc2ccccc21)Nc1ccc2cc(Cl)c(Cl)cc2c1`: the Ki on BaIMPDH (wild-type) was 0.102 µM. In the assay with BaIMPDH L413A [2], the “change of affinity (Ki,app) in L413A” value came out at 10 fold.
